Results of unrelated studies side by side (data: NIAID ChemDB).

Common to all: growth or infection tests; agent: Human cytomegalovirus; read-out: EC50

ECn is the concentration giving n% inhibition of infection, replication or growth. Neighbouring rows are from separate reports. An empty or dashed field is not shown.

smiles	strain or isolate	cells	read by	value
O=C(NCc1ccc(Cl)cc1)c1c[nH]c2c(F)cccc2c1=O	P53 GDG-resistant		plaque count	5.8 µM
Nc1nc2c(ncn2COC(CO)CO)c(=O)[nH]1	C8501	MRC-5	hybridisation	1 µM
O=C(O)P(=O)(O)O	LY9990 (ganciclovir-resistant)	HEL	plaque count	42 µM
CCCCCCCCCCCCCCCCCCOCCOP1(=O)CO[C@@H](Cn2ccc(N)nc2=O)CO1	AD169	MRC-5	plaque count	0.0018 µM
COc1cccc(N2CCN(C3=Nc4c(F)cccc4[C@H](CC(=O)O)N3c3cc(C(F)(F)F)ccc3OC)CC2)c1	rGCV-1		plaque count	0.0039 µM
OC[C@H]1O[C@@H](n2c(Br)nc3cc(Cl)c(Cl)cc32)[C@H](O)[C@@H]1O	TOWNE		plaque count	2.3 µM
Nc1ccn(C[C@@H](CO)OCP(=O)(O)O)c(=O)n1	Cidofovir-resistant	HEL	plaque count	4.44 µM
CCCCCCCCCCCCCCCCOCCCOP(=O)(O)CO[C@H](CO)Cn1ccc(N)nc1=O	DAVIS	MRC-5	plaque count	0.00095 µM
OC[C@H]1O[C@@H](n2c(Br)nc3cc(Cl)c(Cl)cc32)[C@H](O)[C@@H]1O	C9209/1-4-4 drug-resistant	HFF	plaque count	1.5 µM
CC(C)Nc1nc2cc(Cl)c(Cl)cc2n1[C@H]1O[C@@H](CO)[C@H](O)[C@@H]1O	C8501	MRC-5	plaque count	0.34 µM
Nc1nc2c(ncn2COC(CO)CO)c(=O)[nH]1	17517 (DHPG-S)		plaque count	6.8 µM
CC(C)Nc1nc2cc(Cl)c(Cl)cc2n1[C@H]1O[C@@H](CO)[C@H](O)[C@@H]1O	AD169	HFF	plaque count	19.4 µM
Nc1ccn(C[C@H]2COP(=O)(O)CO2)c(=O)n1	C9208/5-4-2	MRC-5	plaque count	1.1 µM
O[C@@H]1[C@H](O)[C@H](O)CO[C@H]1n1c(Br)nc2cc(Cl)c(Cl)cc21	C8708/17-1-1	HFF	plaque count	2 µM
Nc1ncnc2c1ncn2C=C1CC1CO	VR5120 (ganciclovir-resistant)		plaque count	2 µM

The first 2 rows once more:

{"smiles": "O=C(NCc1ccc(Cl)cc1)c1c[nH]c2c(F)cccc2c1=O", "strain or isolate": "P53 GDG-resistant", "read by": "plaque count", "value": "5.8 µM"}
{"smiles": "Nc1nc2c(ncn2COC(CO)CO)c(=O)[nH]1", "strain or isolate": "C8501", "cells": "MRC-5", "read by": "hybridisation", "value": "1 µM"}